Test system: X. citri
Settings: in vivo

B1: BombBC: Bacteriophage Outer Membrane Breaching protein of Xanthomonas phage P15 (Xp15) ORF BC, 17.9 kD, SEQ ID NO. 17 (protein, listed as Xanthomonas campestris)
chain: MSDQTDTTQTTPAEKAPPKEIIRGRMPIAVVALARFGSQSTTTTKAAADALGTTVGKIDDIRKNRNFAYVTADFKPTEAQKADGIEWLKRHPVGADALIEELQNLPVATAEESAAFEQVRASARGQNAKTAEGEVAQAGGGNRRKKKEKPAEAGEVQNPPAADGDSLLS
- pathogenic symptoms caused by X. citri: greatly reduced
